Results taken from patent US4877782A, “Zinc ceftiofur complexes” (The Upjohn Company, priority 1988, dated 1989).

Assay: dispersibility in water, organic solvents and vegetable oils
Format: physicochemical
Conditions: granular powders, in words

Substance: zinc ceftiofur sodium complex [Compound I]
- dispersibility in water and in common pharmaceutical organic solvents and vegetable oils: readily dispersible in water
